What all share (assay type): cell-based, Leishmania (Viannia) braziliensis
Data set [1] deals with L. (V.) braziliensis promastigotes. The experiment in a line: Antileishmanial activity on promastigotes (MTT, 72 h). The following applies: for SI Promastigotes: SI = CC50/IC50. Here is the method: Leishmania (Viannia) braziliensis (MHOM/BR/1975/M2903) was utilized in this study. The promastigote forms of these parasites were maintained in vitro in Schneider’s insect medium pH 7.2, supplemented with 20% fetal bovine serum (FBS) and 1% antibiotic solution (100 U/mL penicillin and 100 μg/mL streptomycin) at a temperature of 26 ± 1 °C in a Biochemical Oxygen Demand (BOD) incubator (Eletrolab EL202, São Paulo, Brazil), with regular aeration and weekly subculturing.
(§1) Assessment of antileishmanial activity against promastigote and amastigote axenic forms of parasites followed the method described by Rodrigues et al. and involved the following steps: L. (V.) braziliensis parasites were cultured in 96-well plates at a concentration of 1 × 10^6 parasites per well. Each well contained 100 μL of supplemented Schneider medium. Serial concentrations of the test substances, ranging from 50 to 1.56 μmol/L, were prepared. Reference drugs, meglumine antimoniate (20 to 40,000 μmol/L) and amphotericin B (0.031 to 2 μmol/L) were also prepared. These concentrations were used to assess the effects of the test substances in comparison to reference drugs. The plates were incubated in a BOD incubator at 26 °C for 72 h. After the 72 h incubation period, 10 μL of MTT (5 mg/mL) was added to each well. The plates were then incubated for an additional 4 h. At the end of the 4 h incubation, formazan crystals formed by the reduction of the MTT salt were solubilized by adding 50 μL of a 10% (w/v) sodium dodecyl sulfate (SDS) solution in distilled water. Absorbance was measured using a microplate reader at a wavelength of 540 nm (Biosystems ELx800 model, Curitiba, PR, Brazil). This measurement quantified the metabolic activity of the parasites, which is indicative of their viability and proliferation. Schneider medium containing 0.2% DMSO was used as a negative control in the tests.
The different mean concentrations for promastigotes (IC50) and macrophages (CC50) were calculated using nonlinear regression. For comparisons between groups, ANOVA analysis of variance was performed followed by Tukey’s test in a statistical program, taking the p-value < 0.05 as the maximum level of statistical significance.

Data set [2] concerns L. (V.) braziliensis axenic amastigotes. The experiment in a line: Antileishmanial activity on axenic amastigotes (MTT, 72 h). The following applies: SI = CC50/EC50. Here is the method: In vitro amastigogenesis was performed by transformation from promastigotes at the stationary phase of growth to obtention axenic amastigotes. This process involved altering the culture conditions to Schneider’s medium with a pH of 5.5, supplementing them with 5% FBS, and incubating them at a temperature of 32 °C [17].
as §1

Data set [3] concerns L. (V.) braziliensis intramacrophage amastigotes. The experiment in a line: Treatment of RAW 264.7 macrophages infected with L. (V.) braziliensis (intramacrophage amastigotes). The following applies: for SI Intramacrophage Amastigotes: SI = CC50/EC50. Here is the method:
RAW 264.7 macrophages (1 × 10^6 cells/mL) were seeded in 24-well plates containing sterile glass slides, and approximately 500 μL of supplemented DMEM medium was added. The plates were then incubated at 37 °C with 5% CO2 for 4 h to facilitate cell adhesion. Following the adhesion period, promastigotes (1 × 10^7) in the stationary growth phase were introduced into the wells for infection. The plates were then incubated for an additional 4 h to allow infection to take place. Afterward, the medium was carefully removed, and the wells were washed three times with PBS to eliminate any nonadherent cells. Fresh medium containing serial concentrations of the test substances, ranging from 0.78 to 25 μmol/L, was added to the wells. Additionally, a range of concentrations of glucantime (25 to 800 μmol/L) was included for comparison. The treatment was carried out for 72 h in an incubator at 37 °C with 5% CO2. At the end of the 72 h treatment period, the glass lamina was removed from each well and stained using rapid panoptic stain (Laborklin®, Curitiba, Paraná, Brazil). The stained samples were mounted on permanent slides using Entelan® (Sigma-Aldrich, St. Louis, MO, USA), and antileishmanial activity was assessed by measuring the infection rate and counting the number of amastigotes per macrophage. Quantification was performed using light microscopy at a magnification of 1000×, and a total of 300 macrophages per lamina were evaluated. As a negative control, half DMEM containing 0.2% DMSO was used.

A value given as a limit tells only on which side of the number the result lay.

In the case of `O=C(/N=C(/NCc1ccccc1)Nc1ccc(Br)cc1)c1ccccc1` [LQOF-G2, (Z)-N-benzoyl-N-benzyl-N-(4-bromophenyl)guanidine], in data set [1], the “SI Promastigotes” value is on record as 30.4. In data set [2], the “SI Axenic Amastigotes” value is recorded as 32.4. In data set [3], the “SI Intramacrophage Amastigotes” value is 38.9.
On to “Meglumine antimoniate [Meglumine At, reference compound]”, for which, in data set [1], the “SI Promastigotes” value is reported as 0.04. In data set [1] (all parasite forms), the “SI (margin of safety), summary statement for reference drugs” value is at most 2.0.
Consider `O=C(/N=C(/NCc1ccccc1)Nc1ccccc1Br)c1ccccc1` [LQOF-G35], for which the “SI Promastigotes” value in data set [1] is recorded as 8.9.
For `O=C(/N=C(/NCc1ccccc1)Nc1ccc([N+](=O)[O-])cc1)c1ccccc1` [LQOF-G1, (Z)-N-benzoyl-N-benzyl-N-(4-nitrophenyl)guanidine], in data set [1], the “SI Promastigotes” value is on record as 31.9. In addition, in data set [2], the “SI Axenic Amastigotes” value was 34.5. In addition, in data set [3], the “SI Intramacrophage Amastigotes” value amounted to 40.3. Besides, the “higher safety margin in relation to macrophages than meglumine antimoniate” value in data set [3] (ratio of selectivity index values) was found to be 21.56 fold.
Turning to `CC(C)(C)c1ccc(N/C(=N\C(=O)c2ccccc2)NCc2ccccc2)cc1` [LQOF-G6, (Z)-N-benzoyl-N-benzyl-N-(4-tert-butylphenyl)guanidine], the “SI Promastigotes” value in data set [1] was found to be 26.0. For the same compound, the “SI Axenic Amastigotes” value in data set [2] turned out to be 35.6. Moreover, the “SI Intramacrophage Amastigotes” value in data set [3] is given as 39.5.
`O=C(/N=C(/NCc1ccc(Cl)cc1Cl)Nc1ccc(Br)cc1)c1ccccc1` [LQOF-G32, (Z)-N-benzoyl-N-(2,4-di-chlorobenzyl)-N-(4-bromophenyl)guanidine]: the “SI Promastigotes” value in data set [1] worked out at 16.0.
Take `C[C@@H]1[C@H](O)[C@@H](C)/C=C/C=C/C=C/C=C/C=C/C=C/C=C/[C@H](O[C@@H]2O[C@H](C)[C@@H](O)[C@H](N)[C@@H]2O)C[C@@H]2O[C@](O)(C[C@@H](O)C[C@@H](O)[C@H](O)CC[C@@H](O)C[C@@H](O)CC(=O)O[C@H]1C)C[C@H](O)[C@H]2C(=O)O` [Amphotericin B, reference compound]: the “SI Promastigotes” value in data set [1] was determined as 2.0. In data set [2], the “SI Axenic Amastigotes” value amounted to 1.4. Besides, in data set [3], the “SI Intramacrophage Amastigotes” value came out at 1.6.
As for `O=C(/N=C(/NCc1ccccc1)Nc1ccc(I)cc1)c1ccccc1` [LQOF-G7, (Z)-N-benzoyl-N-benzyl-N-(4-iodophenyl)guanidine], the “SI Promastigotes” value in data set [1] is reported as 25.4. In addition, the “SI Axenic Amastigotes” value in data set [2] is given as 30.0. For the same compound, in data set [3], the “SI Intramacrophage Amastigotes” value is on record as 22.2.

Values taken from publication PMC10813298, “Evidence of Guanidines Potential against Leishmania (Viannia) braziliensis: Exploring In Vitro Effectiveness, Toxicities and of Innate Immunity Response Effects” (Biomolecules, 2023).
